The structures appear in SMILES notation.

The nature of the series: Cytotoxicity against syrian golden hamster BHK21 cells after 24 hrs. Particulars: bhk-21, 24 h.
Molecule `CC(=O)OC[C@]12C[C@H](O)C(C)=C[C@H]1O[C@@H]1[C@H](O)[C@@H](OC(C)=O)[C@@]2(C)[C@]12CO2` yielded an LC100 of 31 ng/mL.
Molecule `CC(=O)OC[C@]12C[C@H](OC(=O)CC(C)C)C(C)=C[C@H]1O[C@@H]1[C@H](O)[C@@H](OC(C)=O)[C@@]2(C)[C@]12CO2` had an LC100 of 5 ng/mL.
Then `CCCCCC(=O)O[C@H]1C[C@@]2(COC(C)=O)[C@@H](C=C1C)O[C@@H]1[C@H](O)[C@@H](OC(C)=O)[C@@]2(C)[C@@]12CO2`, with 14 ng/mL.
The same measure for `CC(=O)O[C@H]1C[C@@]2(CO)[C@@H](C=C1C)O[C@@H]1[C@H](O)[C@@H](OC(C)=O)[C@@]2(C)[C@@]12CO2`: 1000 ng/mL; for `CCC(=O)O[C@H]1C[C@@]2(COC(C)=O)[C@@H](C=C1C)O[C@@H]1[C@H](O)[C@@H](OC(C)=O)[C@@]2(C)[C@@]12CO2`: 5 ng/mL; for `CCCCC(=O)O[C@H]1C[C@@]2(COC(C)=O)[C@@H](C=C1C)O[C@@H]1[C@H](O)[C@@H](OC(C)=O)[C@@]2(C)[C@@]12CO2`: 14 ng/mL.
Then `CC(=O)OC[C@]12C[C@H](OC(C)=O)C(C)=C[C@H]1O[C@@H]1[C@H](O)[C@@H](OC(C)=O)[C@@]2(C)[C@@]12CO2`, with 14 ng/mL.

Values taken from ChEMBL document CHEMBL1158985, “Two new trichothecenes from Fusarium sporotrichioides” (1991).
